Anti-infective test results gathered from many reports (values: NIAID ChemDB through PubChem).

Shared fields: tests in culture; agent: Cryptococcus neoformans

Neighbouring rows are from separate reports. A number after MIC or MFC names an inhibition level or a share of isolates. An empty or dashed field is not shown. Zone: diameter of growth inhibition. Percent inhibition refers to the dose given; in toxicity tests it is the harm to the cells. ECn: concentration that inhibits the pathogen or its effect by n%.

SMILES,strain,method,read-out,dose,result
CCC(C)n1ncn(-c2ccc(N3CCN(c4ccc(OC[C@H]5CO[C@](Cn6cncn6)(c6ccc(Cl)cc6Cl)O5)cc4)CC3)cc2)c1=O,42 isolates (HIV+),-,Mean MIC,-,0.101 µg/mL
C[C@@H](n1ncn(-c2ccc(OCC(F)(F)C(F)F)cc2)c1=O)[C@](O)(Cn1cncn1)c1ccc(F)cc1F,DUMC 109.97,-,MFC,-,4 µg/mL
CCOC(=O)c1c(C)nc(NCCCCNc2ccnc3cc(Cl)ccc23)nc1-c1ccccc1,WP,-,MIC99,-,5.7 µg/mL
CNC(=S)N/N=C(\N)c1ccccn1,ATCC 24067D2,-,MIC100,-,104 µM
Cc1nc(NCCCCNc2ccnc3cc(Cl)ccc23)nc(-c2ccccc2)c1C(=O)OC(C)C,27JF,-,MIC99,-,4 µg/mL
CN[C@H]1CC[C@@H](c2ccc(Cl)c(Cl)c2)c2ccccc21,163.99,broth dilution,MIC90,-,4 µg/mL
CCOC(=O)c1c(C)nc(NCCCCNc2ccnc3cc(Cl)ccc23)nc1-c1ccccc1[N+](=O)[O-],VM-MCMMPI,-,MIC99,-,8 µg/mL
C=C1CO[C@H]2[C@@H](C)OC(OC[C@@]34C[C@H]5[C@H](C)CC[C@@H]5[C@@]5(C=O)C[C@@H]3C=C(C(C)C)[C@@]45C(=O)O)C[C@@H]12,137 strains (serotype A),-,Mean MIC,-,0.537 µg/mL
CC(C)C[C@@H]1NC(=O)[C@H](C(C)C)NC1=O,-,broth dilution,MIC100,-,16 µg/mL
CCC(C)n1ncn(-c2ccc(N3CCN(c4ccc(OC[C@H]5CO[C@](Cn6cncn6)(c6ccc(Cl)cc6Cl)O5)cc4)CC3)cc2)c1=O,37 strains,-,MIC50,-,0.25 µg/mL
C[C@@H](n1cnc2cc(Cl)ccc2c1=O)[C@](O)(Cn1cncn1)c1ccc(F)cc1F,Isolate 119.95,-,MFC,-,0.156 µg/mL
Oc1cccc(C=Nc2ccccc2O)c1,WP,-,MIC99,-,4 µg/mL
NCCCC[C@H](NC(=O)[C@H](CCCN=C(N)N)NC(=O)[C@H](CCCN=C(N)N)NC(=O)[C@H](CCCCN)NC(=O)[C@H](CCCCN)NC(=O)[C@@H](N)CCCCN)C(=O)N[C@@H](CCCN=C(N)N)C(=O)O,ATCC 32264,-,inhibition,200 µM,60%
Oc1ccc(O)c(C=Nc2ccccc2O)c1,28JF,-,MIC99,-,11.3 µg/mL
C[C@@H](c1ncncc1F)[C@](O)(Cn1cncn1)c1ccc(F)cc1F,B 32480,broth dilution,MIC,-,0.031 µg/mL
NC(=NC1CCCC1)c1ccc(-c2ccc(-c3ccc(C(N)=NC4CCCC4)cc3)o2)cc1,9 strains,-,Geometric mean MIC,-,0.91 µg/mL
CC(C(O)(Cn1cncn1)c1ccc(F)cc1F)S(C)(=O)=O,R718 (AZOLE-R),-,EC50,-,3 µM
O=C1N[C@H](Cc2ccccc2)C(=O)N2CCC[C@H]12,-,agar diffusion / agar,zone,16 µg/mL,31 mm
CC(=O)OC[C@H]1O[C@@H](O[C@@H]2[C@@H](N=[N+]=[N-])[C@H](O)[C@H](O)[C@H]3OC(C)(C)O[C@H]32)[C@H](OC(C)=O)[C@@H](OC(C)=O)[C@H]1OC(C)=O,ATCC 32264,broth dilution / turbidity,inhibition,15.6 µg/mL,0%
Oc1ccccc1N=Cc1ccccc1,F-10,-,MIC99,-,5.7 µg/mL
CCC(C)n1ncn(-c2ccc(N3CCN(c4ccc(OC[C@H]5CO[C@](Cn6cncn6)(c6ccc(Cl)cc6Cl)O5)cc4)CC3)cc2)c1=O,A26037,-,MFC99,-,>2 µg/mL
Cn1nc(Cc2ccc(Cl)cc2)c2ccccc2c1=O,ATCC 32264,broth dilution,MIC80,-,7.8 µg/mL

2 of the rows above, restated:

SMILES	strain	method	read-out	dose	result
NCCCC[C@H](NC(=O)[C@H](CCCN=C(N)N)NC(=O)[C@H](CCCN=C(N)N)NC(=O)[C@H](CCCCN)NC(=O)[C@H](CCCCN)NC(=O)[C@@H](N)CCCCN)C(=O)N[C@@H](CCCN=C(N)N)C(=O)O	ATCC 32264	-	inhibition	200 µM	60%
C=C1CO[C@H]2[C@@H](C)OC(OC[C@@]34C[C@H]5[C@H](C)CC[C@@H]5[C@@]5(C=O)C[C@@H]3C=C(C(C)C)[C@@]45C(=O)O)C[C@@H]12	137 strains (serotype A)	-	Mean MIC	-	0.537 µg/mL